Values from PubChem BioAssay AID1259414 (Drosophila RNAi Screening Center, 2018)
Assay: 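Host factors increasing or decreasing Wolbachia levels in cultured fly cells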 (primary screen). Cells: Drosophila JW18 cells infected with Wolbachia. Knock-down reagent: long dsRNA against Drosophila genes, 0.25 µg dsRNA per well of a 384-well plate. Time to read-out: 5 days. Challenge: cells persistently infected with Wolbachia before knock-down; no added drug. Read-out: 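Imaged fluorescence in situ signal for Wolbachia 23S rRNA per DAPI-counted host cell, given as a robust z-score within each plate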. Scale: Wolbachia per cell robust z: higher = more Wolbachia per host cell than the plate typical. Hit rule: 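Active if absolute robust z reaches 1.5 in two or more of three replicates, leaving out multi- or no-target dsRNAs, genes unexpressed in JW18 and A1 wells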.
In all, the deposit lists about 24,000 reagents; shown is an unselected part of those with a known target gene and a result. Over the whole deposit, about 1,210 (5%) were called active. 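Inactive calls also include excluded dsRNAs with several or no targets, genes unexpressed in JW18, and well A1, regardless of score.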

Kap-alpha1 [SID104191148] | Wolbachia per cell robust z, rep 1: 0.596; Wolbachia per cell robust z, rep 2: 0.134; Wolbachia per cell robust z, rep 3: 0.489; activity call: inactive
CG33307 [SID104181141] | Wolbachia per cell robust z, rep 1: -0.206; Wolbachia per cell robust z, rep 2: -1.19; Wolbachia per cell robust z, rep 3: 0.0232; activity call: inactive
CG12824 [SID104185965] | Wolbachia per cell robust z, rep 1: -0.429; Wolbachia per cell robust z, rep 2: 0.643; Wolbachia per cell robust z, rep 3: -0.756; activity call: inactive
CG2200 [SID104199632] | Wolbachia per cell robust z, rep 1: -0.137; Wolbachia per cell robust z, rep 2: -3.36; Wolbachia per cell robust z, rep 3: 1.05; activity call: inactive
Tom7 [SID104184927] | Wolbachia per cell robust z, rep 1: -6.64; Wolbachia per cell robust z, rep 2: -0.551; Wolbachia per cell robust z, rep 3: 0.294; activity call: inactive
Tom7 [SID104186905] | Wolbachia per cell robust z, rep 1: -3.92; Wolbachia per cell robust z, rep 2: -1.28; Wolbachia per cell robust z, rep 3: -0.169; activity call: inactive
sna [SID104183405] | Wolbachia per cell robust z, rep 1: -0.807; Wolbachia per cell robust z, rep 2: 0.651; Wolbachia per cell robust z, rep 3: 1.03; activity call: inactive
GstD6 [SID104196479] | Wolbachia per cell robust z, rep 1: -0.657; Wolbachia per cell robust z, rep 2: 0.3; Wolbachia per cell robust z, rep 3: -0.198; activity call: inactive
GstD6 [SID104203076] | Wolbachia per cell robust z, rep 1: -0.835; Wolbachia per cell robust z, rep 2: -2.66; Wolbachia per cell robust z, rep 3: 0.08; activity call: inactive

2 successive records from above, quoted:
GstD6 [SID104196479] | Wolbachia per cell robust z, rep 1: -0.657; Wolbachia per cell robust z, rep 2: 0.3; Wolbachia per cell robust z, rep 3: -0.198; activity call: inactive
GstD6 [SID104203076] | Wolbachia per cell robust z, rep 1: -0.835; Wolbachia per cell robust z, rep 2: -2.66; Wolbachia per cell robust z, rep 3: 0.08; activity call: inactive

The list goes on:
l(3)neo43 [SID104194780] | Wolbachia per cell robust z, rep 1: -0.0392; Wolbachia per cell robust z, rep 2: 0.52; Wolbachia per cell robust z, rep 3: 0.0587; activity call: inactive
CG15822 [SID104188274] | Wolbachia per cell robust z, rep 1: -0.127; Wolbachia per cell robust z, rep 2: 0.45; Wolbachia per cell robust z, rep 3: 0.725; activity call: inactive
CG15822 [SID104188275] | Wolbachia per cell robust z, rep 1: -2.8; Wolbachia per cell robust z, rep 2: 1.14; Wolbachia per cell robust z, rep 3: 0.359; activity call: inactive
Ttd14 [SID104186424] | Wolbachia per cell robust z, rep 1: 0.633; Wolbachia per cell robust z, rep 2: -6.12; Wolbachia per cell robust z, rep 3: -2.47; activity call: active
Ttd14 [SID104186734] | Wolbachia per cell robust z, rep 1: -0.211; Wolbachia per cell robust z, rep 2: -0.227; Wolbachia per cell robust z, rep 3: 0.0785; activity call: inactive
CG42323 [SID104199421] | Wolbachia per cell robust z, rep 1: -4.86; Wolbachia per cell robust z, rep 2: -1.92; Wolbachia per cell robust z, rep 3: 0.346; activity call: inactive
CG42323 [SID104201160] | Wolbachia per cell robust z, rep 1: 0.401; Wolbachia per cell robust z, rep 2: 0.355; Wolbachia per cell robust z, rep 3: 0.668; activity call: inactive
CG12923 [SID104186029] | Wolbachia per cell robust z, rep 1: 0.206; Wolbachia per cell robust z, rep 2: 0.243; Wolbachia per cell robust z, rep 3: 0.453; activity call: inactive
CG34149 [SID104194329] | Wolbachia per cell robust z, rep 1: 0.485; Wolbachia per cell robust z, rep 2: -0.189; Wolbachia per cell robust z, rep 3: 0.83; activity call: inactive
CG34149 [SID104218890] | Wolbachia per cell robust z, rep 1: -1.3; Wolbachia per cell robust z, rep 2: -0.843; Wolbachia per cell robust z, rep 3: -2.15; activity call: inactive
CG11786 [SID104194181] | Wolbachia per cell robust z, rep 1: -1.41; Wolbachia per cell robust z, rep 2: -1.66; Wolbachia per cell robust z, rep 3: -1.18; activity call: inactive
Pfas [SID104183272] | Wolbachia per cell robust z, rep 1: -3.18; Wolbachia per cell robust z, rep 2: -0.0329; Wolbachia per cell robust z, rep 3: 1.68; activity call: inactive
Drep3 [SID104187321] | Wolbachia per cell robust z, rep 1: 0.861; Wolbachia per cell robust z, rep 2: -1.18; Wolbachia per cell robust z, rep 3: -0.0816; activity call: inactive
Drep3 [SID104201839] | Wolbachia per cell robust z, rep 1: -0.475; Wolbachia per cell robust z, rep 2: 0.168; Wolbachia per cell robust z, rep 3: -0.0644; activity call: inactive
PGAP3 [SID104184781] | Wolbachia per cell robust z, rep 1: -3.83; Wolbachia per cell robust z, rep 2: 0.685; Wolbachia per cell robust z, rep 3: 0.0766; activity call: inactive
